Compound potency records, mixed from different reports. Data source: NIAID ChemDB in PubChem.

All rows: whole-cell or culture tests; organism: Toxoplasma gondii

ECn: concentration that inhibits the pathogen or its effect by n%. Neighbouring rows are from separate reports. MIC50, MIC90 and the like: level of inhibition, or share of isolates inhibited. Two numbers with a dash give a range or band. Blank or dashed fields: not listed here. Inhibition is in % at the dose shown (toxicity tests: loss of growth or viability).

| structure | strain | cell line | read-out | dose | value |
|---|---|---|---|---|---|
| O=C(NC(=O)c1ccccc1O)Nc1ccncc1 |  | Human foreskin fibroblasts | MIC50 |  | >0.25 µM |
| Cc1ccccc1NC(=S)NC(=O)c1ccccc1COc1ccc(Cl)cc1 | RH beta-gal | Human foreskin fibroblasts (HFF) | EC50 |  | 100 µM |
| CC[C@H]1OC(=O)[C@H](C)[C@@H](O[C@H]2C[C@@](C)(OC)[C@@H](O)[C@H](C)O2)[C@H](C)[C@@H](O[C@@H]2O[C@H](C)C[C@H](N(C)C)[C@H]2O)[C@](C)(O)C[C@@H](C)CN(C)[C@H](C)[C@@H](O)[C@]1(C)O | RH |  | EC90 |  | 25.4 µg/mL |
| COC(=O)CCCC(=O)Nc1ccc(C(=O)NC(=O)c2ccccc2O)cc1 |  | Human foreskin fibroblasts | MIC50 |  | >1 µM |
| COc1ccc(OCc2ccccc2C(=O)NC(=S)Nc2cccc(OC)c2)cc1 | RH beta-gal | Human foreskin fibroblasts (HFF) | EC50 |  | 127 µM |
| CCc1ccc(C(=O)NC(=S)c2ccccc2O)cc1 |  | Human foreskin fibroblasts | MIC90 |  | >0.25 µM |
| CN1CCC(c2cc(-c3ccncc3)c(-c3ccc(F)cc3)[nH]2)CC1 | ET-PKG FLAG |  | EC50 |  | 0.3 µM |
| CCc1nc(N)nc(N)c1-c1ccc(Cl)cc1 |  |  | MIC |  | 0.5 µg/mL |
| O=C1c2cc3scnc3cc2C2=NCCn3ccc1c32 | RH | THP-1 | EC50 |  | 0.0051 µM |
| N#CC(c1ccc(Cl)cc1)c1c(Cl)cc(-n2ncc(=O)[nH]c2=O)cc1Cl | RH |  | inhibition | 0.005 µg/mL | 97.8–98% |
| O=C(NC(=O)c1ccccc1O)c1ccc(N2CCCC2)cc1 |  | Human foreskin fibroblasts | MIC90 |  | >0.25 µM |
| COc1ccc(OCc2ccccc2C(=O)NC(=S)Nc2c(Cl)cccc2Cl)cc1 | RH beta-gal | Human foreskin fibroblasts (HFF) | EC50 |  | 73 µM |
| O=C1c2cc3ncsc3cc2C2=NCCn3ccc1c32 | RH | THP-1 | EC50 |  | 0.0027 µM |
| CCc1ccc(NC(=O)Nc2ccccc2O)cc1 |  | Human foreskin fibroblasts | MIC50 |  | >0.125 µM |
| OC[C@H]1O[C@@H](n2cnc3c(SCc4ccc(Cl)cc4Cl)ncnc32)[C@H](O)[C@@H]1O | RH adenosine kinase-deficient |  | inhibition | 50 µM | 0% |
| CCC(C)C#Cc1c(C)nc(N)nc1N |  |  | MIC |  | 0.1 µg/mL |
| COc1ccc(OCc2ccccc2C(=O)NC(=S)Nc2ccccc2OC)cc1 | RH beta-gal | Human foreskin fibroblasts (HFF) | EC50 |  | 117 µM |
| COc1ccc(OC)c2[nH]ccc12 | RH | THP-1 | EC50 |  | 0.0007 µM |
| O=C(NC(=S)Nc1ccccc1)c1ccccc1COc1ccc(Cl)cc1 | RH beta-gal | Human foreskin fibroblasts (HFF) | EC50 |  | 16 µM |
| COC(=O)CCC(=O)Nc1ccc(C(=O)NC(=O)c2ccccc2O)cc1 |  | Human foreskin fibroblasts | MIC50 |  | >1 µM |
| COc1ccc(OCc2ccccc2C(=O)NC(=S)Nc2ccc(Cl)cc2)cc1 | RH beta-gal | Human foreskin fibroblasts (HFF) | EC50 |  | 63 µM |
| OC[C@H]1O[C@@H](n2cnc3c(SCc4ccc(OC(F)(F)F)cc4)ncnc32)[C@H](O)[C@@H]1O | RH adenosine kinase-deficient |  | inhibition | 25 µM | 2.4% |
| O=C(NC(=O)c1ccccc1O)c1ccc(N2CCOCC2)cc1 |  | Human foreskin fibroblasts | MIC90 |  | 0.125–0.25 µM |
| O=C(NC(=S)Nc1ccc([N+](=O)[O-])cc1)c1ccccc1COc1ccc(Cl)cc1 | RH beta-gal | Human foreskin fibroblasts (HFF) | EC50 |  | 85 µM |
| CCc1ccc(S(=O)(=O)NC(=O)c2ccccc2O)cc1 |  | Human foreskin fibroblasts | MIC90 |  | >0.25 µM |
| COc1ccc(OCc2ccccc2C(=O)NC(=S)Nc2ccc(C)cc2)cc1 | RH beta-gal | Human foreskin fibroblasts (HFF) | EC50 |  | 44 µM |

A second listing of 2 rows from above:

structure | strain | cell line | read-out | dose | value
CCc1nc(N)nc(N)c1-c1ccc(Cl)cc1 |  |  | MIC |  | 0.5 µg/mL
N#CC(c1ccc(Cl)cc1)c1c(Cl)cc(-n2ncc(=O)[nH]c2=O)cc1Cl | RH |  | inhibition | 0.005 µg/mL | 97.8–98%